PubChem BioAssay AID624099, ICCB-Longwood, 2012
Here is a random part of about 21,000 deposited reagents. In the full data, 497 (2.4%) are marked active. 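Higher z means weaker E2 silencing; only reporter increases were scored, and knock-downs that hurt cell survival may mask genuine repressor factors.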 The numbers tell different reagents against one gene apart.

Aim: 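Host factors E2 relies on to silence an HPV18 LCR reporter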 (primary screen)
Cell system: human C33A cervical carcinoma cells (HPV-negative) stably expressing BPV1 E2 and an HPV18 LCR luciferase reporter
Reagents: siRNA pool against human genes, 40 nM
Timing: 72 h
Detection: 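Per-well luciferase luminescence, z-scored on each plate against the plate mean and SD with control wells left out, then averaged across three replicate plates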
Direction: mean z-score and z-score: higher = stronger reporter signal, weaker E2 silencing
Rule for the call: 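Hit if mean z-score reaches 2 and two or more of three replicate z-scores also reach 2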

no.	target gene	pool no.	mean z-score	z-score, replicate A	z-score, replicate B	z-score, replicate C	activity call
1	LINC00265	1	0.05	-0.08	0.08	0.14	inactive
2	FAM133B	1	0.54	0.29	0.61	0.71	inactive
3	MIOX	1	-1.99	-2.22	-2.03	-1.72	inactive
4	RPS23	1	-1.65	-1.57	-1.85	-1.53	inactive
5	TMOD1	1	0.84	1	0.8	0.73	inactive
6	MTMR2	1	0.94	1.09	0.8	0.94	inactive
7	POMK	1	-0.56	-0.33	-0.63	-0.7	inactive
8	PTPN11	1	-0.06	-0.25	-0.06	0.13	inactive
9	SCRG1	1	0.19	0.5	0.3	-0.25	inactive
10	TBX22	1	-0.66	-0.75	-0.65	-0.57	inactive
11	LOC391427 (retired record)	1	-0.68	-1.04	-0.64	-0.37	inactive
12	HSPA1L	1	-0.8	-0.72	-0.74	-0.96	inactive
13	GOLGA2P10	1	-2.09	-1.9	-1.9	-2.49	inactive
14	CLN8	1	-0.21	-0.06	-0.31	-0.26	inactive
15	UGCG	1	0.11	0.14	0.04	0.16	inactive
16	RNF31	1	1.25	1.43	1.26	1.05	inactive
17	HOXB7	1	-0.08	0.07	-0.03	-0.29	inactive
18	SLCO4C1	1	-0.13	-0.23	-0.5	0.34	inactive
19	LOC389087 (retired record)	1	-1.13	-0.83	-1.47	-1.1	inactive
20	PRSS41	1	0.52	0.41	0.72	0.43	inactive
21	ST8SIA5	1	0.63	0.82	0.54	0.54	inactive
22	E2F8	1	1.75	1.6	1.55	2.09	inactive
23	BEX5	1	-0.17	-0.23	-0.24	-0.04	inactive
24	MMP26	1	-1.03	-1.2	-0.93	-0.96	inactive
25	WASF2	1	0.05	0.15	0.04	-0.02	inactive
26	SERPINF2	1	1.2	1.27	0.92	1.41	inactive
27	ZNF790	1	-1.04	-1.16	-1.09	-0.87	inactive
28	CAP2	1	0.39	0.51	0.45	0.23	inactive
29	LIN28B	1	1.14	1.31	1.21	0.9	inactive
30	ERH	1	-0.91	-0.99	-0.8	-0.93	inactive
31	RSPO3	1	-0.41	-0.29	-0.58	-0.37	inactive
32	DGLUCY	1	0.73	0.61	0.92	0.67	inactive
33	CTR9	1	-0.91	-0.98	-0.89	-0.84	inactive
34	ASMTL-AS1	1	1.54	1.11	1.97	1.53	inactive
35	TEK	1	-1.06	-1.02	-1.04	-1.12	inactive
36	LRRC61	1	0.69	0.29	0.81	0.97	inactive
37	LRCH1	1	1.16	1.02	1.29	1.16	inactive
38	GALNT18	1	-0.31	-0.18	-0.39	-0.35	inactive
39	PTPN1	1	0.35	0.44	0.25	0.37	inactive
40	MED14	1	-2.6	-2.8	-2.59	-2.43	inactive
41	PATJ	1	0.92	1	1.09	0.68	inactive
42	DMTN	1	0.35	0.32	0.4	0.31	inactive
43	PAPSS1	1	-0.39	-0.56	-0.32	-0.29	inactive
44	FAM120B	1	-0.4	-0.49	-0.39	-0.31	inactive
45	DNAJC6	1	0.89	0.74	1.11	0.82	inactive
46	TRIM51BP	1	1.67	2.29	1.72	0.99	inactive
47	FAF2	1	-0.01	0.12	-0.23	0.07	inactive
48	MYO5B	1	2.01	2.19	1.88	1.96	inactive
49	C12orf76	1	-1.44	-1.74	-1.2	-1.39	inactive
50	OR4F21	1	-0.68	-1.06	-0.38	-0.6	inactive
51	UBA7	1	0.13	0.28	-0.11	0.22	inactive
52	CD96	1	2.05	2.04	2.3	1.82	active
53	CASC22	1	0.81	0.67	0.55	1.22	inactive
54	LOC400940	1	-0.11	-0.02	-0.15	-0.17	inactive
55	ABRACL	1	0.76	1.23	0.87	0.17	inactive
56	CD300LG	1	0.57	0.46	1.25	-0.01	inactive
57	CFAP92	1	1.28	0.98	1.24	1.62	inactive
58	RNF5	1	0.94	0.69	1.1	1.05	inactive
59	GAS2L2	1	0.98	0.89	0.98	1.06	inactive
60	ATP9B	1	-0.86	-0.91	-0.81	-0.84	inactive
61	OLA1	1	-0.45	-0.16	-0.16	-1.03	inactive
62	FNTB	1	-1.12	-1.08	-1.49	-0.8	inactive
63	LARGE1	1	-0.21	-0.09	0	-0.54	inactive
64	SCIMP	1	-0.02	0.38	-0.38	-0.06	inactive
65	MFAP1	1	-2.05	-2.25	-1.9	-2.01	inactive
66	KMT2A	1	-1.05	-0.72	-0.98	-1.45	inactive
67	KMT2A	2	-0.01	0.1	-0.04	-0.07	inactive
68	LRP10	1	0.37	0.41	0.31	0.38	inactive
69	CDKL4	1	0.14	-0.04	0.07	0.4	inactive
70	OR10K1	1	-0.37	-0.34	-0.31	-0.44	inactive
71	PEX5	1	0.35	0.4	0.21	0.43	inactive
72	TGFBR2	1	0.24	0.44	0.25	0.04	inactive
73	NAT10	1	-0.36	0	0.03	-1.12	inactive

Part of the list above, set out differently:
DMTN
- mean z-score: 0.35
- z-score, replicate A: 0.32
- z-score, replicate B: 0.4
- z-score, replicate C: 0.31
- activity call: inactive

PAPSS1
- mean z-score: -0.39
- z-score, replicate A: -0.56
- z-score, replicate B: -0.32
- z-score, replicate C: -0.29
- activity call: inactive

FAM120B
- mean z-score: -0.4
- z-score, replicate A: -0.49
- z-score, replicate B: -0.39
- z-score, replicate C: -0.31
- activity call: inactive

DNAJC6
- mean z-score: 0.89
- z-score, replicate A: 0.74
- z-score, replicate B: 1.11
- z-score, replicate C: 0.82
- activity call: inactive
